A mixed list of measured activities; the numbers were collected in NIAID ChemDB.

Common to all: whole-cell or culture tests; organism: Candida glabrata; read-out: MIC

Neighbouring rows are from separate reports. An empty or dashed field is not shown.

| SMILES | strain or isolate | read by | conditions | value |
|---|---|---|---|---|
| OC(CCn1ccnc1)c1ccc(Br)cc1 | RTCC 1040 | broth dilution |  | 64 µg/mL |
| CC(=O)N1CCN(c2ccc(OC[C@H]3CO[C@](Cn4ccnc4)(c4ccc(Cl)cc4Cl)O3)cc2)CC1 | 40 isolates | broth dilution | pH 7 | 0.06 µg/mL |
| OC(CCn1ccnc1)c1ccc(-c2ccccc2)cc1 | RTCC 1040 | broth dilution |  | >64 µg/mL |
| Nc1ncccc1-c1cc(Cc2ccc(COc3ccccn3)cc2)no1 | 8659 | broth dilution |  | 0.03 µg/mL |
| O=C(CCn1ccnc1)c1cccc(C(O)c2ccc(Cl)cc2)c1 | RTCC 1054 | broth dilution |  | 4 µg/mL |
| CCC(C)n1ncn(-c2ccc(N3CCN(c4ccc(OC[C@H]5CO[C@](Cn6cncn6)(c6ccc(Cl)cc6Cl)O5)cc4)CC3)cc2)c1=O | 40 isolates | broth dilution | pH 6 | >16 µg/mL |
| Cc1ccc(C(O)c2cccc(C(=O)CCn3ccnc3)c2)cc1 | RTCC 1054 | broth dilution |  | 16 µg/mL |
| C[C@@H]1CC(=O)N(c2ccccc2)C1=O | CCC 115-2000 | broth dilution / turbidity |  | 62.5 µg/mL |
| Nc1[nH]c(=O)ncc1F | 40 isolates | broth dilution | pH 5 | 0.125 µg/mL |
| CC1CC(=O)N(c2ccc(F)cc2)C1=O | CCC 115-2000 | broth dilution / turbidity |  | 125 µg/mL |
| C[C@@H](c1ncncc1F)[C@](O)(Cn1cncn1)c1ccc(F)cc1F | 8653 | broth dilution |  | 0.25 µg/mL |
| C[C@@H]1CC(=O)N(c2ccc(Cl)cc2)C1=O | CCC 115-2000 | broth dilution / turbidity |  | 62.5 µg/mL |
| Clc1ccc(COC(Cn2ccnc2)c2ccc(Cl)cc2Cl)c(Cl)c1 | 40 isolates | broth dilution | pH 6 | 0.25 µg/mL |
| OC(CCn1ccnc1)c1cccc(C(O)c2ccc(Cl)c(Cl)c2)c1 | RTCC 1040 | broth dilution |  | >64 µg/mL |
| CC1C(=O)N(CCCCc2ccccc2)C(=O)C1C | CCC 115-2000 | broth dilution / turbidity |  | 125 µg/mL |